Test results as given in ChEMBL document CHEMBL3244298, “Adamantylthiourea derivatives as antiviral agents” (J Med Chem, 1979).

Test system: unidentified influenza virus
Test: Antiviral activity against Influenza virus A2/Asian/J305 infected in ip dosed mouse assessed as concentration required to cause survival at 21 days
Format: functional

Which PD50 does the source give for `CCOP(=O)(NC(=S)NC12CC3CC(CC(C3)C1)C2)OCC` here?
The PD50 was 260 mg/kg.
